Results from the NIST ThermoML archive (doi:10.1016/j.jct.2018.04.005).
± gives the expanded uncertainty stated by the source.

Assay: xn = mol fraction of the nth substance listed
Settings: 100 kPa, Liquid, Vibrating tube method

CCCCOP(=O)(OCCCC)OCCCC [tributyl phosphate] + CCCCn1cc[n+](C)c1.F[B-](F)(F)F
mass density (293.15 K, x2 = 0.1158): 997.05 ± 5.4 kg/m3
mass density (293.15 K, x2 = 0.2275): 1017.74 ± 5.5 kg/m3
mass density (293.15 K, x2 = 0.3355): 1038.48 ± 5.7 kg/m3
mass density (293.15 K, x2 = 0.4399): 1060.2 ± 5.9 kg/m3
mass density (293.15 K, x2 = 0.5409): 1082.55 ± 6.1 kg/m3
mass density (293.15 K, x2 = 0.6387): 1105.34 ± 6.2 kg/m3
mass density (293.15 K, x2 = 0.7333): 1128.65 ± 6.5 kg/m3
mass density (293.15 K, x2 = 0.825): 1152.49 ± 6.7 kg/m3
mass density (293.15 K, x2 = 0.9138): 1176.71 ± 7 kg/m3
mass density (298.15 K, x2 = 0.1158): 993.14 ± 5.4 kg/m3
mass density (298.15 K, x2 = 0.2275): 1013.9 ± 5.5 kg/m3
mass density (298.15 K, x2 = 0.3355): 1034.98 ± 5.7 kg/m3
mass density (298.15 K, x2 = 0.4399): 1056.79 ± 5.9 kg/m3
mass density (298.15 K, x2 = 0.5409): 1079.35 ± 6.1 kg/m3
mass density (298.15 K, x2 = 0.6387): 1102.22 ± 6.3 kg/m3
mass density (298.15 K, x2 = 0.7333): 1125.69 ± 6.5 kg/m3
mass density (298.15 K, x2 = 0.825): 1149.65 ± 6.7 kg/m3
mass density (298.15 K, x2 = 0.9138): 1174.08 ± 7 kg/m3
mass density (303.15 K, x2 = 0.1158): 989.13 ± 5.4 kg/m3
mass density (303.15 K, x2 = 0.2275): 1009.67 ± 5.5 kg/m3
mass density (303.15 K, x2 = 0.3355): 1030.66 ± 5.7 kg/m3
mass density (303.15 K, x2 = 0.4399): 1052.49 ± 5.9 kg/m3
mass density (303.15 K, x2 = 0.5409): 1075.04 ± 6.1 kg/m3
mass density (303.15 K, x2 = 0.6387): 1097.96 ± 6.3 kg/m3
mass density (303.15 K, x2 = 0.7333): 1121.34 ± 6.5 kg/m3
mass density (303.15 K, x2 = 0.825): 1145.4 ± 6.7 kg/m3
mass density (303.15 K, x2 = 0.9138): 1169.51 ± 7 kg/m3
mass density (308.15 K, x2 = 0.1158): 984.91 ± 5.4 kg/m3
mass density (308.15 K, x2 = 0.2275): 1005.38 ± 5.5 kg/m3
mass density (308.15 K, x2 = 0.3355): 1026.38 ± 5.7 kg/m3
mass density (308.15 K, x2 = 0.4399): 1048.24 ± 5.9 kg/m3
mass density (308.15 K, x2 = 0.5409): 1070.94 ± 6.1 kg/m3
mass density (308.15 K, x2 = 0.6387): 1093.9 ± 6.3 kg/m3
mass density (308.15 K, x2 = 0.7333): 1117.42 ± 6.5 kg/m3
mass density (308.15 K, x2 = 0.825): 1141.61 ± 6.7 kg/m3
mass density (308.15 K, x2 = 0.9138): 1165.77 ± 7 kg/m3
mass density (313.15 K, x2 = 0.1158): 980.71 ± 5.4 kg/m3
mass density (313.15 K, x2 = 0.2275): 1001.24 ± 5.5 kg/m3
mass density (313.15 K, x2 = 0.3355): 1022.34 ± 5.7 kg/m3
mass density (313.15 K, x2 = 0.4399): 1044.17 ± 5.9 kg/m3
mass density (313.15 K, x2 = 0.5409): 1066.94 ± 6.1 kg/m3
mass density (313.15 K, x2 = 0.6387): 1090.05 ± 6.3 kg/m3
mass density (313.15 K, x2 = 0.7333): 1113.55 ± 6.5 kg/m3
mass density (313.15 K, x2 = 0.825): 1137.88 ± 6.7 kg/m3
mass density (313.15 K, x2 = 0.9138): 1162.16 ± 7 kg/m3
mass density (318.15 K, x2 = 0.1158): 977.02 ± 5.4 kg/m3
mass density (318.15 K, x2 = 0.2275): 997.5 ± 5.5 kg/m3
mass density (318.15 K, x2 = 0.3355): 1018.69 ± 5.7 kg/m3
mass density (318.15 K, x2 = 0.4399): 1040.49 ± 5.9 kg/m3
mass density (318.15 K, x2 = 0.5409): 1063.21 ± 6.1 kg/m3
mass density (318.15 K, x2 = 0.6387): 1086.31 ± 6.3 kg/m3
mass density (318.15 K, x2 = 0.7333): 1109.86 ± 6.5 kg/m3
mass density (318.15 K, x2 = 0.825): 1134.17 ± 6.7 kg/m3
mass density (318.15 K, x2 = 0.9138): 1158.5 ± 7 kg/m3
mass density (323.15 K, x2 = 0.1158): 972.79 ± 5.4 kg/m3
mass density (323.15 K, x2 = 0.2275): 993.29 ± 5.5 kg/m3
mass density (323.15 K, x2 = 0.3355): 1014.65 ± 5.7 kg/m3
mass density (323.15 K, x2 = 0.4399): 1036.54 ± 5.9 kg/m3
mass density (323.15 K, x2 = 0.5409): 1059.29 ± 6.1 kg/m3
mass density (323.15 K, x2 = 0.6387): 1082.36 ± 6.3 kg/m3
mass density (323.15 K, x2 = 0.7333): 1106.1 ± 6.5 kg/m3
mass density (323.15 K, x2 = 0.825): 1130.56 ± 6.7 kg/m3
mass density (323.15 K, x2 = 0.9138): 1154.99 ± 7 kg/m3
